{"source": "paper PMC7390954", "about": "(Frontiers in Microbiology, 2020)", "key": {"[1]": {"system": "P. aeruginosa UCBPP-PA14 Tn insertion mutants", "settings": "sltB1 (PA14_12080) Tn mutant; BM2 20 μM Mg2+"}, "[2]": {"system": "P. aeruginosa UCBPP-PA14 transposon (Tn) insertion mutant library", "settings": "sub-MIC, BM2 20 μM Mg2+"}, "[3]": {"settings": "Tn insertions in PA14_18330 (arnT)"}, "[4]": {"settings": "Tn insertions in PA14_18340 (arnD)"}, "[5]": {"settings": "Tn insertions in PA14_18360 (arnC)"}, "[6]": {"settings": "Tn insertions in PA14_42920 (tssK-2, hsiJ2)"}, "[7]": {"settings": "Tn insertions in PA14_48970 (bacteriophage Pf1 helix destabilizing protein)"}, "[8]": {"settings": "Tn insertions in PA14_49180 (phoP)"}, "[9]": {"settings": "Tn insertions in PA14_58090 (asmA)"}, "[10]": {"settings": "Tn insertions in PA14_63150 (pmrA)"}, "[11]": {"settings": "Tn insertions in PA14_63160 (pmrB)"}}, "note": "Values joined by “and” are separate entries in the source; they are usually repeats but may differ in a detail not shown here. Equal entries are not always repeated. Where two headings read alike, the source gives them in different places.", "data": [{"compound": "CC(C)CCCCC(=O)N[C@@H](CCN)C(=O)N[C@H](C(=O)N[C@@H](CCN)C(=O)N[C@H]1CCNC(=O)[C@H]([C@@H](C)O)NC(=O)[C@H](CCN)NC(=O)[C@H](CCN)NC(=O)[C@H](CC(C)C)NC(=O)[C@@H](Cc2ccccc2)NC(=O)[C@H](CCN)NC1=O)[C@@H](C)O", "note": "[PMB, polymyxin B2]", "values": [{"measurement": "increased susceptibility of mutant relative to wild-type", "setting": "[1]", "value": 4, "unit": "fold"}, {"measurement": "log2-fold change of normalized UID, treated vs untreated", "setting": "[2]; Tn insertions in PA14_00720", "value": -1.141}, {"measurement": "log2-fold change of normalized UID, treated vs untreated", "setting": "[2]; Tn insertions in PA14_03410 (tRNA-Arg)", "value": -2.878}, {"measurement": "log2-fold change of normalized UID, treated vs untreated", "setting": "[2]; Tn insertions in PA14_05520 (mexR)", "value": -2.2}, {"measurement": "log2-fold change of normalized UID, treated vs untreated", "setting": "[2]; Tn insertions in PA14_08460", "value": -1.454}, {"measurement": "log2-fold change of normalized UID, treated vs untreated", "setting": "[2]; Tn insertions in PA14_08540 (mepM1)", "value": -2.878}, {"measurement": "log2-fold change of normalized UID, treated vs untreated", "setting": "[2]; Tn insertions in PA14_09220 (pchB)", "value": -1.556}, {"measurement": "log2-fold change of normalized UID, treated vs untreated", "setting": "[2]; Tn insertions in PA14_09300", "value": -1.205}, {"measurement": "log2-fold change of normalized UID, treated vs untreated", "setting": "[2]; Tn insertions in PA14_09350", "value": -1.219}, {"measurement": "log2-fold change of normalized UID, treated vs untreated", "setting": "[2]; Tn insertions in PA14_12080 (sltB1)", "value": -3.686}, {"measurement": "log2-fold change of normalized UID, treated vs untreated", "setting": "[2]; Tn insertions in PA14_13880", "value": -1.293}, {"measurement": "log2-fold change of normalized UID, treated vs untreated", "setting": "[2]; Tn insertions in PA14_16280", "value": -1.771}, {"measurement": "log2-fold change of normalized UID, treated vs untreated", "setting": "[2]; Tn insertions in PA14_17940 (glpR)", "value": -1.662}, {"measurement": "log2-fold change of normalized UID, treated vs untreated", "setting": "[2]; [3]", "value": "−5.04 and -5.048"}, {"measurement": "log2-fold change of normalized UID, treated vs untreated", "setting": "[2]; [4]", "value": "−3.93 and -3.9371"}, {"measurement": "log2-fold change of normalized UID, treated vs untreated", "setting": "[2]; [5]", "value": "−4.99 and -4.994"}, {"measurement": "log2-fold change of normalized UID, treated vs untreated", "setting": "[2]; Tn insertions in PA14_20940", "value": -1.293}, {"measurement": "log2-fold change of normalized UID, treated vs untreated", "setting": "[2]; Tn insertions in PA14_22840", "value": -1.149}, {"measurement": "log2-fold change of normalized UID, treated vs untreated", "setting": "[2]; Tn insertions in PA14_23370 (orfK)", "value": -2.206}, {"measurement": "log2-fold change of normalized UID, treated vs untreated", "setting": "[2]; Tn insertions in PA14_23890", "value": -1.478}, {"measurement": "log2-fold change of normalized UID, treated vs untreated", "setting": "[2]; Tn insertions in PA14_24420", "value": -1.331}, {"measurement": "log2-fold change of normalized UID, treated vs untreated", "setting": "[2]; Tn insertions in PA14_27190 (tRNA-Ser)", "value": "−1.87 and -1.878"}, {"measurement": "log2-fold change of normalized UID, treated vs untreated", "setting": "[2]; Tn insertions in PA14_31430", "value": -1.247}, {"measurement": "log2-fold change of normalized UID, treated vs untreated", "setting": "[2]; Tn insertions in PA14_33780", "value": -1.068}, {"measurement": "log2-fold change of normalized UID, treated vs untreated", "setting": "[2]; Tn insertions in PA14_34940", "value": -1.186}, {"measurement": "log2-fold change of normalized UID, treated vs untreated", "setting": "[2]; Tn insertions in PA14_40560", "value": -3.293}, {"measurement": "log2-fold change of normalized UID, treated vs untreated", "setting": "[2]; Tn insertions in PA14_41090 (mltD)", "value": -3.151}, {"measurement": "log2-fold change of normalized UID, treated vs untreated", "setting": "[2]; Tn insertions in PA14_41260 (parR)", "value": -3.359}, {"measurement": "log2-fold change of normalized UID, treated vs untreated", "setting": "[2]; [6]", "value": "−3.34 and -3.35"}, {"measurement": "log2-fold change of normalized UID, treated vs untreated", "setting": "[2]; Tn insertions in PA14_48510", "value": -1.994}, {"measurement": "log2-fold change of normalized UID, treated vs untreated", "setting": "[2]; Tn insertions in PA14_48520", "value": -1.08}, {"measurement": "log2-fold change of normalized UID, treated vs untreated", "setting": "[2]; Tn insertions in PA14_48910", "value": -4.381}, {"measurement": "log2-fold change of normalized UID, treated vs untreated", "setting": "[2]; [7]", "value": "−4.04 and -4.048"}, {"measurement": "log2-fold change of normalized UID, treated vs untreated", "setting": "[2]; Tn insertions in PA14_48990", "value": -1.078}, {"measurement": "log2-fold change of normalized UID, treated vs untreated", "setting": "[2]; Tn insertions in PA14_49000", "value": "−1.48 and -1.484"}, {"measurement": "log2-fold change of normalized UID, treated vs untreated", "setting": "[2]; Tn insertions in PA14_49010", "value": -1.399}, {"measurement": "log2-fold change of normalized UID, treated vs untreated", "setting": "[2]; Tn insertions in PA14_49020", "value": -1.85}, {"measurement": "log2-fold change of normalized UID, treated vs untreated", "setting": "[2]; [8]", "value": "−2.80 and -2.803"}, {"measurement": "log2-fold change of normalized UID, treated vs untreated", "setting": "[2]; Tn insertions in PA14_51310", "value": -1.052}, {"measurement": "log2-fold change of normalized UID, treated vs untreated", "setting": "[2]; Tn insertions in PA14_54750", "value": -1.371}, {"measurement": "log2-fold change of normalized UID, treated vs untreated", "setting": "[2]; Tn insertions in PA14_56950 (colR)", "value": "-1.0 and -1.071"}, {"measurement": "log2-fold change of normalized UID, treated vs untreated", "setting": "[2]; Tn insertions in PA14_57100 (ampG)", "value": -2.087}, {"measurement": "log2-fold change of normalized UID, treated vs untreated", "setting": "[2]; Tn insertions in PA14_57510", "value": -1.177}, {"measurement": "log2-fold change of normalized UID, treated vs untreated", "setting": "[2]; [9]", "value": "−4.56 and -4.564"}, {"measurement": "log2-fold change of normalized UID, treated vs untreated", "setting": "[2]; Tn insertions in PA14_59120", "value": -1.181}, {"measurement": "log2-fold change of normalized UID, treated vs untreated", "setting": "[2]; Tn insertions in PA14_60400 (rpsT)", "value": -2.463}, {"measurement": "log2-fold change of normalized UID, treated vs untreated", "setting": "[2]; Tn insertions in PA14_62040", "value": -1.263}, {"measurement": "log2-fold change of normalized UID, treated vs untreated", "setting": "[2]; Tn insertions in PA14_63040", "value": -1.753}, {"measurement": "log2-fold change of normalized UID, treated vs untreated", "setting": "[2]; [10]", "value": "−5.87 and -5.878"}, {"measurement": "log2-fold change of normalized UID, treated vs untreated", "setting": "[2]; [11]", "value": "−6.21 and -6.212"}, {"measurement": "log2-fold change of normalized UID, treated vs untreated", "setting": "[2]; Tn insertions in PA14_64260", "value": -1.556}, {"measurement": "log2-fold change of normalized UID, treated vs untreated", "setting": "[2]; Tn insertions in PA14_65300 (hflX)", "value": -1.377}, {"measurement": "log2-fold change of normalized UID, treated vs untreated", "setting": "[2]; Tn insertions in PA14_69250", "value": -2.956}, {"measurement": "log2-fold change of normalized UID, treated vs untreated", "setting": "[2]; Tn insertions in PA14_69470 (algR)", "value": -2.293}]}, {"compound": "colistin", "values": [{"measurement": "increased susceptibility of mutant relative to wild-type", "setting": "[1]", "value": 2, "unit": "fold"}, {"measurement": "log2-fold change of normalized UID, treated vs untreated", "setting": "[2]; [3]", "value": "−5.03"}, {"measurement": "log2-fold change of normalized UID, treated vs untreated", "setting": "[2]; [4]", "value": "−4.92"}, {"measurement": "log2-fold change of normalized UID, treated vs untreated", "setting": "[2]; [5]", "value": "−4.97"}, {"measurement": "log2-fold change of normalized UID, treated vs untreated", "setting": "[2]; Tn insertions in PA14_18370 (arnB)", "value": "−5.10"}, {"measurement": "log2-fold change of normalized UID, treated vs untreated", "setting": "[2]; [6]", "value": "−3.47"}, {"measurement": "log2-fold change of normalized UID, treated vs untreated", "setting": "[2]; [7]", "value": "−3.03"}, {"measurement": "log2-fold change of normalized UID, treated vs untreated", "setting": "[2]; Tn insertions in PA14_49000", "value": "−1.80"}, {"measurement": "log2-fold change of normalized UID, treated vs untreated", "setting": "[2]; [8]", "value": "−1.26"}, {"measurement": "log2-fold change of normalized UID, treated vs untreated", "setting": "[2]; [9]", "value": "−1.58"}, {"measurement": "log2-fold change of normalized UID, treated vs untreated", "setting": "[2]; [10]", "value": "−4.86"}, {"measurement": "log2-fold change of normalized UID, treated vs untreated", "setting": "[2]; [11]", "value": "−7.19"}]}]}
